Experimental findings from paper PMC4361584 are described below.

Amino acid sequences for entries named in this document (tags omitted). A change or cut given only in a name is not applied to a line headed by its entry.
UniProt P22513: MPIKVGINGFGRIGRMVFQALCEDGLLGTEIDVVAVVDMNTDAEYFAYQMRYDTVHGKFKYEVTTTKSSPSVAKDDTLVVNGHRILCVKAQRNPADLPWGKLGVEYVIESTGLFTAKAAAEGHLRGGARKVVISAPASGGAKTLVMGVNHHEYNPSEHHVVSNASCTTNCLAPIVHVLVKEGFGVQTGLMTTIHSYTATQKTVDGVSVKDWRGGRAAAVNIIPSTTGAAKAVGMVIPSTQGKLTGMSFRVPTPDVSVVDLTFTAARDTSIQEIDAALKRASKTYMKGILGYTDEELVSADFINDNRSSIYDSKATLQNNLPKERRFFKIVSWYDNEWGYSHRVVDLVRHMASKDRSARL

The target in this data set is rTcGAPDH (glyceraldehyde 3-phosphate dehydrogenase) (Trypanosoma cruzi) (UniProt P22513). Nature of the data set: EMSA. Particulars: NAD+ (50, 75, 100, uM), 1.35 uM GAPDH, dose-dependent inhibition (abstract: abolishes); 1x from 5x buffer: 20 mM HEPES pH 6.0, 1 mM EDTA, 10 mM (NH4)2SO4, 1 mM DTT, 0.2% Tween 20, 30 mM KCl; 0.1 ug poly-lysine, 1 ug poly[d(I-C)], 20 ul, on ice 15 min; recombinant protein; protein details: His-tag; single-stranded DNA. Background: Mobility shift assays separate free from complexed probe on a gel.

The exact form of at least one protein or probe is not confirmed. A weaker result is weaker than the reference pair of the same experiment.

With “TTAGGGTTAGGGTTAGGGTTAGGGTTAGGGTTAGGG [ss (TTAGGG)6]”, the binding result was “binds more weakly”.
